PubChem BioAssay AID504761 | Drosophila RNAi Screening Center | 2011
Screen: 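Fly genes whose silencing reduces dengue virus type 2 infection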 (primary screen). Cell system: D.Mel-2 cells from Drosophila. Knock-down reagent: long dsRNA against Drosophila genes. Challenge: infection with dengue virus type 2; dose and infection time not stated. Measured: 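Cells stained for dengue envelope protein and imaged; percent of infected cells per well on duplicate plates, ranked by infection, with stained nuclei counted for cell number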. Scale: infection score: higher = more virus-infected cells; cell count: higher = more cells in the well. Hit rule: 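Low infection ranks in the two replicates (chance level up to 0.065) followed by a retest with a 1.5-fold or larger significant decrease, p below 0.05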. Calls: active = confirmed: knock-down lowers infection; inactive = not picked or not confirmed.
The deposit covers about 22,000 reagents; shown is an unselected part of those with a known target gene and a result. Of all reagents, 116 (0.52%) got an active call. 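Calls depend on retest data that are not deposited; infection was ranked per plate without normalising between plates; the unit of the infection score is not given.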 The raw values are shown without normalisation. Reagents against one gene are numbered here. A plus sign joins genes that one reagent is predicted to hit. The record does not give: the amount of reagent, the time to read-out.

| target gene | reagent | infection score, replicate 1 | infection score, replicate 2 | cell count, replicate 1 | cell count, replicate 2 | activity call |
| --- | --- | --- | --- | --- | --- | --- |
| FMRFa (GeneID 36030) | 1 | 6.4 | 3.15 | 2938 | 7307 | inactive |
| TTLL3B (GeneID 33946) | 1 | 7.17 | 1.36 | 5591 | 7044 | inactive |
| Lk (GeneID 47746) | 1 | 2.49 | 2.52 | 5264 | 6061 | inactive |
| MTPAP (GeneID 31081) | 1 | 4.11 | 4.75 | 6792 | 6027 | inactive |
| MTPAP (GeneID 31081) | 2 | 2.37 | 2.94 | 6114 | 5922 | inactive |
| zetaTry (GeneID 36216) | 1 | 9.72 | 16 | 5863 | 6035 | inactive |
| AQP (GeneID 36456) | 1 | 7.62 | 4.87 | 6680 | 6507 | inactive |

The list goes on (2 carried over from the part before).
| target gene | reagent | infection score, replicate 1 | infection score, replicate 2 | cell count, replicate 1 | cell count, replicate 2 | activity call |
| --- | --- | --- | --- | --- | --- | --- |
| zetaTry (GeneID 36216) | 1 | 9.72 | 16 | 5863 | 6035 | inactive |
| AQP (GeneID 36456) | 1 | 7.62 | 4.87 | 6680 | 6507 | inactive |
| Ggamma30A + borr | 1 | 14.1 | 18.4 | 5402 | 5014 | inactive |
| Hsc70-5 (GeneID 36583) | 1 | 8.08 | 25.8 | 4580 | 4527 | inactive |
| Hsc70-5 (GeneID 36583) | 2 | 4.24 | 12.8 | 3706 | 2297 | inactive |
| vig2 (GeneID 43016) | 1 | 2.23 | 1.28 | 6514 | 6477 | inactive |
| vig2 (GeneID 43016) | 2 | 9.92 | 4.05 | 6511 | 6292 | inactive |
| Lsp1beta (GeneID 33274) | 1 | 5.04 | 4.62 | 5815 | 6669 | inactive |
| Lsp1beta (GeneID 33274) | 2 | 8.25 | 6.8 | 6193 | 5837 | inactive |
| mst (GeneID 33119) | 1 | 0.71 | 0.62 | 7090 | 6248 | inactive |
| CG9616 (GeneID 41731) | 1 | 4.7 | 8.91 | 6107 | 6409 | inactive |
| CG9616 (GeneID 41731) | 2 | 2.38 | 42.1 | 6374 | 5501 | inactive |
| babo (GeneID 35900) | 1 | – | 5.16 | 481 | 814 | inactive |
| Strica (GeneID 35528) | 1 | 3.23 | 6.61 | 6877 | 6704 | inactive |
| CG31087 (GeneID 43062) | 1 | 2.31 | 7.99 | 6405 | 4457 | inactive |
| CG15021 (GeneID 38546) | 1 | 1.44 | 8.27 | 6324 | 6819 | inactive |
| CG15021 (GeneID 38546) | 2 | 4.1 | 3.94 | 6341 | 6426 | inactive |
| gkt (GeneID 33530) | 1 | 3.94 | 1.9 | 6295 | 6776 | inactive |
